## HIV-1 5' UTR: DMS reactivities by position

Sequence of the HIV-1 NL4-3 5' RNA, positions 1 to 437, as numbered in the source:
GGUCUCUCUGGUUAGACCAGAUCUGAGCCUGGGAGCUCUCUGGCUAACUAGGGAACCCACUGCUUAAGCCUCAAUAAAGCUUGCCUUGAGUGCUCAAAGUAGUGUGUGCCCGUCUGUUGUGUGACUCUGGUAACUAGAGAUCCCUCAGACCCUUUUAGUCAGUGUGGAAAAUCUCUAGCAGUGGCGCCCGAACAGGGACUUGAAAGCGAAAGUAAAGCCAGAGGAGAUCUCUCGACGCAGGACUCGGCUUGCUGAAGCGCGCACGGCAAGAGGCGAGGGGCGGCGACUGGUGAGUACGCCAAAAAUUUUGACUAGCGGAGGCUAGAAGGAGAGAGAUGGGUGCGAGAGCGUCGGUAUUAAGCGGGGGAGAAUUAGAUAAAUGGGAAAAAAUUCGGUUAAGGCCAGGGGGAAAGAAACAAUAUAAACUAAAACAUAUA

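Randomly mutated transcripts starting with one, two or three G (1G, 2G, 3G), capped or uncapped, were folded for 30 min at 37 °C. Monomer and dimer bands were cut from native gels after folding in high salt (300 mM KCl, 5 mM MgCl2) or low salt (40 mM KCl, 0.1 mM MgCl2). Each band was probed in the gel with DMS (170 mM, 15 min, 37 °C), with ethanol as control, and sequenced.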

Values are winsor-normalised DMS reactivities of A and C; higher means more reactive, usually unpaired.
One numbering serves 1G, 2G and 3G.
A position is written with its base.

| position | domain | 2G capped high-salt monomer | 1G capped high-salt dimer |
|---|---|---|---|
| A198 | PBS | 0.58 | 0.62 |
| A399 | none | 0.22 | 0.39 |
| C85 | PolyA | 0.33 | 0.43 |
| A34 | TAR | 1.13 | 1.00 |
| A437 | none | 0.03 | 0.04 |
| A171 | PBS | 0.45 | 0.49 |
| C56 | TAR | 0.03 | 0.16 |
| A50 | TAR | 0.11 | 0.25 |
| A368 | none | 0.94 | 0.81 |
| C260 | SL1 | 0.51 | 0.34 |
| A324 | SL3 | 0.13 | 0.07 |
| C23 | TAR | 1.32 | 1.11 |
| A169 | PBS | 0.73 | 0.67 |
| A293 | SL2 | 0.77 | 0.93 |
| A305 | none | 0.75 | 0.71 |
| C316 | SL3 | 0.12 | 0.05 |
| A411 | none | 0.91 | 0.81 |
| A326 | none | 0.88 | 0.97 |
| A98 | PolyA | 0.36 | 0.30 |
| A389 | none | 0.16 | 0.22 |
| C343 | AUG | 0.48 | 0.32 |
| A374 | none | 0.49 | 0.55 |
| C229 | CU | 0.25 | 0.15 |
| A336 | AUG | 0.79 | 0.85 |
| C40 | TAR | 0.03 | 0.04 |
| C127 | PAS | 0.03 | 0.04 |
| C189 | PBS | 0.09 | 0.14 |
| A296 | SL2 | 0.62 | 0.62 |
| A138 | PBS | 0.13 | 0.11 |
| A388 | none | 0.08 | 0.10 |
| C152 | PBS | 0.85 | 0.89 |
| C238 | none | 0.74 | 0.46 |
| C160 | PBS | 0.05 | 0.05 |
| C349 | none | 0.37 | 0.32 |
| A416 | none | 0.46 | 0.43 |
| A170 | PBS | 0.52 | 0.56 |
| A180 | PBS | 0.56 | 0.61 |
| A161 | PBS | 0.49 | 0.48 |
| C150 | PBS | 0.07 | 0.04 |
| C300 | none | 0.06 | 0.09 |
| C125 | PAS | 0.08 | 0.10 |
| A356 | none | 0.96 | 0.97 |
| A191 | PBS | 0.40 | 0.42 |
| A74 | PolyA | 0.77 | 0.64 |
| A140 | PBS | 0.41 | 0.32 |
| A168 | PBS | 0.47 | 0.43 |
| A370 | none | 0.55 | 0.53 |
| C28 | TAR | 0.03 | 0.06 |
| A359 | none | 0.52 | 0.59 |
| C426 | none | 0.80 | 0.80 |
| A271 | SL1 | 0.54 | 0.58 |
| C95 | PolyA | 0.58 | 0.54 |
| A255 | SL1 | 0.48 | 0.55 |
| A386 | none | 1.36 | 1.29 |
| A286 | SL2 | 0.55 | 0.66 |
| A157 | PBS | 0.92 | 0.99 |
| C142 | PBS | 0.08 | 0.08 |
| A304 | none | 0.15 | 0.20 |
| A347 | none | 0.26 | 0.32 |
| A220 | antiPAS | 0.35 | 0.22 |
| A303 | none | 0.07 | 0.08 |
| C243 | SL1 | 0.06 | 0.04 |
| C362 | none | 0.46 | 0.35 |
| A55 | TAR | 0.25 | 0.44 |
| A97 | PolyA | 0.44 | 0.33 |
| C179 | PBS | 0.81 | 0.83 |
| A76 | PolyA | 0.25 | 0.26 |
| A147 | PBS | 0.45 | 0.46 |

Extract of 5 entries:

{"position": "A76", "domain": "PolyA", "2G capped high-salt monomer": 0.25, "1G capped high-salt dimer": 0.26}
{"position": "C238", "domain": "none", "2G capped high-salt monomer": 0.74, "1G capped high-salt dimer": 0.46}
{"position": "A168", "domain": "PBS", "2G capped high-salt monomer": 0.47, "1G capped high-salt dimer": 0.43}
{"position": "A416", "domain": "none", "2G capped high-salt monomer": 0.46, "1G capped high-salt dimer": 0.43}
{"position": "C56", "domain": "TAR", "2G capped high-salt monomer": 0.03, "1G capped high-salt dimer": 0.16}

From the data files of Ye et al. 2022, doi:10.1038/s41594-022-00746-2.